# Measurements from paper PMC9461429.
# Key:
# [1] = target: SARS-CoV spike glycoprotein (S) (SARS-CoV) (UniProt P59594); assay: SPR
# [2] = target: SARS-CoV-2 Wuhan-Hu-1 spike glycoprotein (S) (SARS-CoV-2 Wuhan-Hu-1); assay: SPR
substance,measurement,setting,value
His6-tagged monomeric ACE2 (ACE2-H6) (from UniProt Q9BYF1 18-740) (receptor),Kd,[1],351 nM
same,Kd,[2],153 nM
